PubChem BioAssay AID372 (MTDP, 2006)
The entries are a selection whose mix differs from that of the whole data set. The source made the active and inactive calls. Rule as the data show it: active = inhibition above about 50%; inactive = the rest.

Target: Gag-Pol polyprotein (Human immunodeficiency virus type 1 group M subtype B (isolate HXB2)) (UniProt P04585)
Assay: RNase H inhibition, HIV 1 Gag Pol polyprotein, FRET biochemical assay, screening (AID 372)
Conditions: HIV-1 RT RNase H, FRET RNA/DNA substrate fluorescence; at 10 µM; hits give high values

Row | Compound | inhibition
1 | O=C(NC(SC1=NCCS1)C(Cl)(Cl)Cl)c1ccc(I)cc1 (stereo not drawn) | inactive: 7%
2 | CC(C)OP(=O)(OC(C)C)C(=O)c1ccc(F)cc1 | inactive: 10%
3 | O=[N+]([O-])c1cccc(-c2no[n+]([O-])c2-c2cccc([N+](=O)[O-])c2)c1 | inactive: 27%
4 | O=C(CF)NC(Sc1ccc(Cl)cc1)C(Cl)(Cl)Cl (stereo not drawn) | inactive: 3%
5 | CCCOP(=O)(OCCC)O/C(C)=C/SC#N | inactive: 6%
6 | COC(=O)c1ccc(OP(=O)(Oc2ccc(Cl)cc2C)SCC(C)C)cc1 (stereo not drawn) | inactive: 9%
7 | CC(C)OP(=O)(OC(C)C)C(=O)c1ccccc1Cl | inactive: 17%
8 | Cc1ccc(SC(NC(=O)c2ccccc2)C(Cl)Cl)cc1 (stereo not drawn) | inactive: 6%
9 | Cc1cc(C)nc(SC(NC(=O)c2ccccc2)C(Cl)(Cl)Cl)n1 (stereo not drawn) | inactive: 2%
10 | O=C(NC(Sc1ccc(Cl)cc1)C(Cl)(Cl)Cl)c1ccc([N+](=O)[O-])cc1 (stereo not drawn) | inactive: 27%
11 | COC(=O)NC(Sc1ccc(Cl)cc1)C(Cl)Cl (stereo not drawn) | inactive: 0%
12 | O=CNC(Sc1nc2ccccc2o1)C(Cl)(Cl)Cl (stereo not drawn) | inactive: 13%
13 | CCCCSP(=O)(OCC(C)C)OCC(C)C | inactive: 4%
14 | CC(C)OP(=O)(OC(C)C)N1CCCCC1 | inactive: 4%
15 | CCOC(=O)NC(Sc1nc2ccccc2o1)C(Cl)(Cl)Cl (stereo not drawn) | inactive: 2%
16 | CCOP(=O)(OCC)SCC(=O)NCCC(=O)O | inactive: 7%
17 | CCCCOP(=O)(OCCCC)SC | inactive: 15%
18 | Cc1c2non([O-])c-2c(C)[n+](=O)[n+]1[O-] | inactive: 15%
